Assay results as given in article PMC9525273.

Columns and labels:
[1] = system: Dd2-B2-PfATP4^G358S parasites; assay: P. falciparum proliferation assay (72 h, flow cytometry, SYBR Green I/MitoTracker); assay type: cell-based, Plasmodium falciparum; settings: Dd2-B2-PfATP4G358S vs Dd2-B2
Description: Two types of parasite proliferation assays were employed in this study, with both yielding highly consistent results. For the NF54-based lines and Dd2-B2-PfATP4^G358S and its parent, assays were initiated with cultures containing predominantly ring-stage parasites with a parasitaemia of 0.3% and a haematocrit of 1%. All assays using NF54 were performed in culture media containing 10% O + human serum. The duration of the assays was 72 h and the concentration of DMSO was <0.5% (v/v). Serial dilutions of the test compounds were performed using a Tecan D300e digital dispenser, with parasite cultures added manually. Parasite survival was assessed by flow cytometry on an Intellicyt iQue3 (Essen Bioscience), with 1× SYBR Green I (Invitrogen) and 200 nM MitoTracker Deep Red FM (Invitrogen) used to stain the nucleus and the mitochondria in live parasites, respectively. The gating strategy used to quantify parasite survival, performed using FlowJo version 10 (FlowJo LLC.), is illustrated in Supplementary Fig. 9. IC50 and IC90 values were calculated by linear interpolation of the dose-response data.

[2] = system: isolated Dd2-Polδ-PfATP4^G358S P. falciparum trophozoites; assay: [Na+]cyt measurement (SBFI), Na+ dysregulation; assay type: cell-based, Plasmodium falciparum; settings: Dd2-Polδ-PfATP4G358S vs Dd2-Polδ; estimated
Description: The ratio of the fluorescence intensity recorded at 340 nm and 380 nm (with an emission wavelength of 515 nm) was converted to [Na^+]cyt using a calibration procedure that entailed suspending parasites in solutions of varying [Na^+] containing ionophores. Fluorescence measurements and calibrations were performed at 37 °C, either with individual 1 mL suspensions using a PerkinElmer LS 50B fluorescence spectrometer (for resting [Na^+]cyt measurements for which the data are shown in Supplementary Fig. 7) or in 96-well plates using a Tecan Infinite M1000 PRO plate reader with i-control (version 1.12) software (all other [Na^+]cyt measurements).

[3] = system: Dd2-Polδ-PfATP4^G358S parasites; assay: P. falciparum proliferation assay (72 h, fluorescent DNA-intercalating dye); assay type: cell-based, Plasmodium falciparum; settings: Dd2-Polδ-PfATP4G358S vs Dd2-Polδ; mean ± SEM
Description: For experiments with all other parasites, the effects of compounds of interest on parasite proliferation was measured in 96-well plates containing serial dilutions of the compounds in culture medium, with a fluorescent DNA-intercalating dye used to detect surviving parasites. The assays were initiated with erythrocytes infected with predominantly ring-stage parasites, and the starting parasitaemia and haematocrit were both 1%.

[4] = system: Dd2-B2-PfATP4^G358S parasites; settings: Dd2-B2-PfATP4G358S; cited from earlier work

## C[C@H]1Cc2c([nH]c3cc(Cl)c(F)cc23)[C@@]2(N1)C(=O)Nc1ccc(Cl)cc12 [Cipargamin]
[1]
  IC50 fold higher than for Dd2-B2 parent: 795 ± 98 fold
[2]
  IC50 for [Na+]cyt dysregulation, fold higher than in parental Dd2-Polδ: > 230 fold
[3]
  IC50 fold higher than that of Dd2-Polδ parent: 1082 ± 138 fold

## N#Cc1cc(NC(=O)[C@H]2c3ccccc3C(=O)N(CC(F)(F)F)[C@@H]2c2cccnc2)ccc1F [(+)-SJ733]
[1]
  IC50 fold higher than for Dd2-B2 parent: 186 ± 18 fold
[2]
  IC50 for [Na+]cyt dysregulation, fold higher than in parental Dd2-Polδ: > 180 fold
[3]
  IC50 fold higher than that of Dd2-Polδ parent: 237 ± 51 fold
[4]
  fold resistance earlier reported: 5 fold
